## Library screen at single concentrations

Results are given as percent effect. The record does not define 0% and 100%; most values in the screen are far below 50% and negative numbers occur (in some assays of this library far below -100). The entries come from a sample that favours strong results. A dash means the value is not listed here; it may have been measured.

Mtb cholesterol medium: 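Whole-cell growth test on Mycobacterium tuberculosis, read after 4 days in a medium based on cholesterol and the lipid DPPC; the read-out is not stated. Tested at 500 µM. Higher reads as more growth inhibition (inferred: compounds with an IC50 in retests scored well above the rest). About 18,000 compounds were tested under these conditions; 5% (about 900) showed 50% or more at least once.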
Mtb glucose medium: 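Whole-cell growth test on Mycobacterium tuberculosis, read after 3 days in glucose-containing 7H9 medium; the read-out is not stated. Concentration: 500 µM. The record gives no direction; compounds that gave an IC50 in retests scored well above the rest, so higher reads as more growth inhibition. Of about 18,000 compounds tested this way, about 1,400 (7.9%) reached 50% or more in at least one test.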

structure	Mtb cholesterol medium	Mtb glucose medium
CC(CN1CCOCC1)NC(=O)c1csc(Br)c1 (configuration not stated)	-	51.59
CNc1cccnc1N1CCCC1	-	63.96
c1ccc(-c2noc(CN3CCCC3)n2)cc1	17.46	72.52
Cc1cc(C(=O)N[C@@H]2CCOC[C@H]2O)c(C)n1C	-35.27	-
CN(C)C(=O)CCN1CCC(N)CC1	-	-0.6514
Cc1cc(C(=O)N[C@H]2CCCNC2)n(C)n1	-	12.4
CCc1ccc(C(=O)NC(C)C(N)=O)o1 (configuration not stated)	-	9.16
O=C(NCCSc1ccccn1)C1CCCCO1 (configuration not stated)	36.59	55.5
CC(=O)N1CCN(C2CC(N)C2)CC1 (configuration not stated)	-13.52	-
CC(CN)Cn1cccn1 (configuration not stated)	-	5.763
Cc1cccc(C)c1NC(=O)CN1CCN(C)CC1	-	-16.36
CCNS(=O)(=O)c1ccc(CC(=O)N(C)C)cc1	-	7.995
CN(C)C1CCCN(C(=O)c2ccc(Br)cn2)C1 (configuration not stated)	-	8.746
Cc1cccc(NC(=O)C(C)N)c1 (configuration not stated)	13.07	18.49
COc1ccccc1C(N)c1noc(C)n1 (configuration not stated)	-	10.55
OCCOc1ccc(CN2CCCCCC2CO)cc1 (configuration not stated)	-	11.46
COc1ccc(CNc2ccncc2F)cc1C#N	-	77.6
CCC(C)C(=O)NCc1cccnc1N1CCOCC1 (configuration not stated)	-8.303	-
COc1cccnc1NCc1cc(C(N)=O)cs1	-	24.07
CC(C)n1[nH]c(-c2ccccc2)cc1=N	-7.843	-
Cc1cc(Cl)ccc1OCC(=O)N[C@@H]1CCOC[C@H]1O	-	22.17
CC(C)C(NC(=O)CCn1cccn1)c1cccnc1 (configuration not stated)	-	0.1159
Cc1ccc(C(=O)NCCCS(C)(=O)=O)c(O)c1	1.672	26.46
O=C(NCc1ccccc1OCC1CC1)c1c[nH]nn1	-	40.66
c1nsnc1-c1nc(C2CCCO2)no1 (configuration not stated)	62.28	50.93
Cc1nc(C(C)C)cc(N(C)CC(O)CO)n1 (configuration not stated)	-	4.304
CC(Cc1cccs1)C(=O)NC(C)(CO)CO (configuration not stated)	-	14.16
OCCCc1cccc(CCCO)c1	-	18.56
CCCn1c(SCC(N)=O)nnc1C1CC1	-	1.877
CNCc1cccc(-n2cccn2)c1	-	-9.474
COc1ccnc(N2CCN(C(=O)CSC)CC2)n1	5.831	-
Cc1ccc2[nH]c(C(=O)N3CCN(C)CC3)cc2c1	67.55	69.23
CCc1ccc(CNC(=O)N2CCC(C(N)=O)CC2)s1	-	4.54
COc1ccnc(NCCS(=O)(=O)c2ccccc2)n1	57.15	65.5
COCC1(S(=O)(=O)NCc2ccnc(OC)c2)CC1	-	18.33
Cc1nc(CN2CCN(CC3(O)CCNC3)CC2)cs1 (configuration not stated)	-15.2	-
CCN(C(=O)NC(C)C)C(C)CS(=O)(=O)CC (configuration not stated)	-	-4.29
Cc1noc(C)c1CN1CCC(C(=O)NC2CC2)CC1	-8.952	-
O=C(Nc1cc(Cl)c(Cl)cn1)C1COCCO1 (configuration not stated)	-	2.381
CC(=O)N1CCN(CCSc2ccccc2)CC(O)C1 (configuration not stated)	-	32.26
N#CC1(C(=O)N2CCc3sccc3C2)CCCC1	80.87	82.32
CCN1CCCC1CNC(=O)c1c[nH]nn1 (configuration not stated)	-	2.808
CC(C)(C)OC(=O)c1ncccc1N	63.04	-
O=C(COC1CCCCC1)NCc1c[nH]nn1	-	2.399
NCCCn1nc2n(c1=O)CCCC2	-	8.941
Cc1cc(F)ccc1NC(=O)NCCCn1cnnc1	-3.393	17.7
CN(CCSc1nnc[nH]1)c1ccccc1	39.63	32.92
Cc1ncsc1C(=O)NCc1ccnc(N(C)C)c1	9.778	16.03
NC1CCN(c2ccccc2F)C1 (configuration not stated)	-	9.58
CN1[C@H]2CC[C@@H]1CN(CC(=O)Nc1ccn(C)n1)CC2	-	-24.43
NC(=O)CCN1C(=O)c2ccccc2S1(=O)=O	-19.36	-3.502
CSc1ccccc1-c1[nH][nH]c(=O)c1CCN	-	35.53
NC1CCCc2nc(N3CCC(CO)CC3)ncc21 (configuration not stated)	-	-208.5
CC(C)Cc1nc(CN2C(=O)CCNC2=O)no1	-	0.2896
CCC(=O)NCCCN1CCc2ccccc2C1	7.026	21.11
CC(=O)c1cccc(OCC(=O)Nc2cc(C)on2)c1	4.973	-10.33
Cc1ccc(C(=O)N2CCCC2c2ccc[nH]2)o1 (configuration not stated)	-	23.49
CC(N)C(=O)Nc1ccc(-n2cncn2)cc1 (configuration not stated)	-	22.22
COc1ccc(CCNc2ccc3nnnn3n2)cc1	-	58.27
NC1CCCCC1=O (configuration not stated)	1.775	-
NCC(CO)Cc1ccco1 (configuration not stated)	-	-0.174
Cc1ccc(NC(=O)NCC(=O)NC(C)(C)C)cc1	-	37.53
O=C(CSc1cnn[nH]1)Nc1ccc(F)cc1F	4.122	29.45
COc1ccc(C)cc1C(C)O (configuration not stated)	-	4.602
Cc1cc(=O)[nH]c(CN)n1	-	-8.979
COc1ccccc1S(=O)(=O)Nc1cccnc1O	-	25.13
CC(N)c1cc(F)ccc1-n1cccn1 (configuration not stated)	-	41.99
N[C@H]1C[C@@H](c2cc(NCCCN3CCCC3)ncn2)C1	-	-2.536
CC(=O)COC(=O)CC(NC(N)=O)c1ccc(Cl)cc1 (configuration not stated)	-	-0.306
CC(=O)N1CCN(CCC(=O)Nc2cc(C)on2)CC1	-	-9.151
CCN(Cc1ccoc1)C(=O)C1(C)CCCNC1 (configuration not stated)	5.576	-
O=C(CN1CCCC1c1ccccc1)N1CCNC1=O (configuration not stated)	-	-11.28
C[C@@]1(O)CCN(C(=O)c2cnc(C3CC3)nc2)C[C@@H]1O	-	8.425
CC(C)COCCN1CCS(=O)(=O)CC(C)C1 (configuration not stated)	-	7.632
Cc1ncc(C(=O)NCc2ccnn2C)c(O)c1Br	-	-6.104

The first 5 entries again:

- CC(CN1CCOCC1)NC(=O)c1csc(Br)c1 (configuration not stated) : Mtb glucose medium: 51.59%
- CNc1cccnc1N1CCCC1 : Mtb glucose medium: 63.96%
- c1ccc(-c2noc(CN3CCCC3)n2)cc1 : Mtb cholesterol medium: 17.46%; Mtb glucose medium: 72.52%
- Cc1cc(C(=O)N[C@@H]2CCOC[C@H]2O)c(C)n1C : Mtb cholesterol medium: -35.27%
- CN(C)C(=O)CCN1CCC(N)CC1 : Mtb glucose medium: -0.6514%

Data taken from ChEMBL document CHEMBL3988442, “University of Dundee, Small-Polar-MMV Screening Library” (2021).